Compound potency records, mixed from different reports. Data source: NIAID ChemDB in PubChem.

Common to all: whole-cell or culture tests; organism: Mycobacterium tuberculosis

ECn is the concentration giving n% inhibition of infection, replication or growth. Lines come from different laboratories, so protocols vary. MIC bound: limit read from a one-dose screen. An empty or dashed field is not shown. Percent inhibition refers to the dose given; in toxicity tests it is the harm to the cells. a–b is a range or a potency band. A number after MIC or MFC names an inhibition level or a share of isolates.

compound,read-out,strain,tested at,method,conditions,cell line,mutations,value
C[C@H]1COc2c(N3CCN(C)CC3)c(F)cc3c(=O)c(C(=O)O)cn1c23,MIC50,10 strains,,,,,,0.5 µg/mL
O=C(COc1ccc2ccccc2c1)Nn1c(-c2ccccc2)ccc1-c1ccccc1,inhibition,H37Rv (ATCC 27294),100 µg/mL,resazurin,,,,97%
O=C(Oc1ccc(Cl)cc1C(=O)Nc1ccc(Cl)c(Cl)c1)c1ccccc1,MIC,Praha 1,,broth dilution,21 d,,,0.5 µM
CCCCCc1ccc(Oc2ccccc2)c(O)c1,MIC100,,,,,,,2.1 µg/mL
Cc1cc2nc(CCC3CCCCC3)[nH]c2cc1C,MIC90,H37Rv,,visual reading / absorbance,,,,0.145 µM
O=C(O)C1Oc2ccccc2C1c1ccccc1,MIC bound,H37Rv,,BACTEC,,,,>12.5 µg/mL
O=C(Nn1c(-c2ccccc2)ccc1-c1ccccc1)c1ccncc1,EC50,LORA,,turbidity,,,,>67.8 µg/mL
O=C1CSC(c2ccc(Br)cc2)N1C(=O)NCCCN1c2ccccc2Sc2ccccc21,inhibition,H37Rv,25 µg/mL,agar,,,,30%
CO[C@H]1/C=C/O[C@@]2(C)Oc3c(C)c(O)c4c(O)c(c5c(c4c3C2=O)NC2(CCN(CC(C)C)CC2)N=5)=NC(=O)/C(C)=C\C=C\[C@H](C)[C@H](O)[C@@H](C)[C@@H](O)[C@@H](C)[C@H](OC(C)=O)[C@@H]1C,MIC,Isolate 900145 drug-susceptible,,,,,,0.063 µg/mL
CC(=O)O[C@@H]1C[C@H]2O[C@@H]3C=C(C)CC[C@]3(C)[C@]1(C)[C@]21CO1,MIC,H37Rv,,BACTEC,,,,≥12.8 µg/mL
S=c1[nH]nc(CON=C(c2ccccc2)c2ccccc2)o1,inhibition,,12.5 µg/mL,,,,,7–56%
CCCCCc1ccc(Oc2ccccc2C#N)c(O)c1,MIC100,,,,,,,2.5 µg/mL
CCCCCCCCCCCCCCC[C@H](O)CCCC[C@H]1CC=CC(=O)O1,MIC,H37Rv,,,,,,24.08 µg/mL
O=S1(=O)CS(=O)(=O)OCCCCO1,inhibition,H37Rv,12.5 µg/mL,BACTEC,,,,11%
O=C(NC1CCN(S(=O)(=O)c2cccc3cnccc23)CC1)C1CCCCC1,MIC90,SRMV2.6,,resazurin,,,Inosine monophosphate dehydrogenase-resistant,>100 µM
O=C1C(=O)c2ccccc2C(O)=C1C(CCc1ccccc1)C1=C(O)c2ccccc2C(=O)C1=O,MIC bound,H37Rv,,BACTEC,,,,>12.8 µg/mL
O=C(Oc1cc(Cl)ccc1C(=O)Nc1ccc(Br)cc1)c1ccccc1,MIC,331/88 (H37Rv),,broth dilution,21 d,,,2 µM
CCCCCc1ccc(Oc2ccccc2Cl)c(O)c1,MIC100,,,,,,,1.56 µg/mL
CCc1ccccc1NC(=O)/C(CC(=O)c1c(C)n([O-])c2ccccc2[n+]1=O)=N/NS(=O)(=O)c1ccc(C)cc1,MIC bound,H37Rv,,BACTEC,,,,>12.5 µg/mL
O=C(Nc1ccc2c(c1)OCO2)N1CCN(S(=O)(=O)c2cccc3cnccc23)CC1,MIC90,SRMV2.6,,resazurin,,,Inosine monophosphate dehydrogenase-resistant,>100 µM
CCOC(=O)[C@@H](C)Sc1nc(N)c2c3c(sc2n1)CC(C(C)(C)C)CC3,MIC,H37Rv,,MTT / visual reading,,,,12.5 µg/mL
COc1ccc(CC(=O)N2CCN(S(=O)(=O)c3cccc4cnccc34)CC2)c(OC)c1,MIC90,SRMV2.6,,resazurin,,,Inosine monophosphate dehydrogenase-resistant,>250 µM
CC1COc2c(N3CCN(C)CC3)c(F)cc3c(=O)c(C(=O)O)cn1c23,MIC90,9 isolates (RMP INH-S),,,,,,2 µg/mL
CC(C)(C)C1CCc2c(sc3nc(SCc4cc(-c5ccccc5)on4)nc(N)c23)C1,MIC,H37Rv,,MTT / visual reading,,,,>200 µg/mL
CO[C@H]1/C=C/O[C@@]2(C)Oc3c(C)c(O)c4c(O)c(c5c(c4c3C2=O)NC2(CCN(CC(C)C)CC2)N=5)=NC(=O)/C(C)=C\C=C\[C@H](C)[C@H](O)[C@@H](C)[C@@H](O)[C@@H](C)[C@H](OC(C)=O)[C@@H]1C,MBC,2356-5 (RIF-R),,,,,,4 µg/mL
CCCCCCCCCCCCCCC[C@H](O)CC[C@@H](O)CCC[C@H]1CC=CC(=O)O1,MIC,H37Rv,,,,,,61.47 µg/mL
NC(=O)c1cnccn1,MIC,Isolate 94-735,,,,,,300 µg/mL
Cc1ccc(NCCCC2CCCN3CCCCC23)c2c(=O)c3ccccc3sc12,MIC,H37Rv,,BACTEC,,,,6.25 µg/mL
COc1c(N2C[C@@H]3CCCN[C@@H]3C2)c(F)cc2c(=O)c(C(=O)O)cn(C3CC3)c12,MIC50,10 strains,,,,,,0.06 µg/mL
Cc1cc(C)c2c(n1)S(=O)(=O)N(CC(=O)NC1CCCCC1)/C(=C(/O)c1ccccc1)C2=O,inhibition,H37Rv,12.5 µg/mL,,,,,28%
O=C(Nn1c(-c2ccccc2)ccc1-c1ccccc1)c1ccccc1,inhibition,H37Rv (ATCC 27294),100 µg/mL,resazurin,,,,100%
O=C1c2ccccc2C(=O)n2nc3ccccc3c21,MIC bound,H37Rv,,resazurin,,,,>6.25 µg/mL
CCCCCCCCCCCCCCC[C@H](O)CCC[C@H](O)C[C@H]1CC=CC(=O)O1,inhibition,H37Rv,128 µg/mL,fluorescence,,VERO,,97.3%
O=C(Oc1ccc(Cl)cc1C(=O)Nc1ccc(Br)cc1)c1ccccc1,MIC,331/88 (H37Rv),,broth dilution,21 d,,,2 µM
CCCCCCCCCCCCCCC[C@H](O)CCCCCC[C@H]1CC=CC(=O)O1,MIC,H37Rv,,,,,,>128 µg/mL
c1ccc(C(=NOCc2nnc(N3CCOCC3)o2)c2ccccc2)cc1,inhibition,,12.5 µg/mL,,,,,7–56%
Cc1cc(C)c2c(=O)n(CC(O)CNc3ccc4c(c3)OCO4)sc2n1,EC50,H37Rv,,,,,,<12.5 µg/mL
C=C(C)C(=O)O[C@H]1C[C@@]23O[C@@H]2CC/C(=C/[C@H]2OC(=O)C(=C)[C@H]12)CO[C@@H]3O,MIC,H37Rv,,BACTEC,,,,≥12.8 µg/mL
CCCCCCn1c(C)ccc1C,inhibition,H37Rv,12.5 µg/mL,,,,,97%
O=C1OCc2cccc3c2-c2c1cccc2C(=O)OC3,MIC bound,H37Rv,,BACTEC,,,,>12.5 µg/mL
Brc1ccc2nc(CCC3CCCCC3)[nH]c2c1,MIC90,H37Rv,,visual reading / absorbance,,,4/3 MmpL3 (V195A),13 µM
CN1C2CCC1CC(O)C2,MIC bound,H37Rv,,BACTEC,,,,>12.5 µg/mL
CCCCCCn1c(C)c(CN2CCN(C)CC2)c(CN2CCN(C)CC2)c1-c1ccc(Cl)cc1,EC50,H37Rv,,,,,,<12.5 µg/mL
COc1ccc2cc(NCC(=O)NN)ccc2c1,EC50,Drug-resistant,,,,,,5 µg/mL
Cc1ccc(-c2ccccc2)n1NC(=O)c1ccncc1,inhibition,H37Rv (ATCC 27294),100 µg/mL,resazurin,,,,100%
CC(Nc1ccc2ccccc2c1)C(=O)NN,inhibition,Drug-resistant,1 µg/mL,,,,,100%
c1ccc(Nc2nnc(CON=C(c3ccccc3)c3ccccc3)o2)cc1,inhibition,,12.5 µg/mL,,,,,7–56%
Cc1ccc(C)n1Cc1ccccc1,MIC,H37Rv,,,,,,<12.5 µg/mL
O=c1oc2ccccc2c(O)c1C=Nc1ccccc1,MIC bound,H37Rv,,BACTEC,,,,>12.5 µg/mL
Cc1cc2c(S(=O)(=O)N3CCN(C(=O)C4CCCCC4)CC3)cccc2cn1,MIC90,SRMV2.6,,resazurin,,,Inosine monophosphate dehydrogenase-resistant,>100 µM
C(=C\c1nnc(CCON=C(c2ccccc2)c2ccccc2)o1)/c1ccccc1,inhibition,,12.5 µg/mL,,,,,7–56%
CCCCCCCCCCCCCCC[C@H](O)CC[C@H]1CC=CC(=O)O1,inhibition,H37Rv,128 µg/mL,fluorescence,,,,79.1%
O=C(C1CCCCC1)N1CCN(S(=O)(=O)c2ccc3ccccc3c2)CC1,MIC90,H37Rv,,resazurin,,,,>100 µM
O=C1C=CC(=C(c2ccc(O)cc2)c2c(Br)c(Br)c(Br)c(Br)c2S(=O)(=O)O)C=C1,MIC bound,H37Rv,,BACTEC,,,,>12.5 µg/mL
O=C(Oc1ccc(Cl)cc1C(=O)Nc1cccc(Cl)c1)c1ccccc1,MIC,331/88 (H37Rv),,broth dilution,14 d,,,2 µM
O=C(NCCO)C(=O)N/N=C/c1ccc([N+](=O)[O-])o1,MIC,PAS-R,,,,,,6.3 µg/mL
CCOC(=O)CN1C(C(C)=O)=C(O)c2c(C)cc(C)nc2S1(=O)=O,MIC,H37Rv,,,,,,>12.5 µg/mL
O=C(Oc1ccc(Cl)cc1C(=O)Nc1ccc(C(F)(F)F)cc1)c1ccccc1,MIC,331/88 (H37Rv),,broth dilution,14 d,,,0.5 µM
Cc1cc(CSc2nc(N)c3c4c(sc3n2)CC(C(C)(C)C)CC4)on1,MIC,H37Rv,,MTT / visual reading,,,,50 µg/mL
Cc1ccc2c(c1C)-c1c(ccc(C)c1C)C(=O)C2=O,inhibition,H37Rv,6.25 µg/mL,,,,,99%
Cc1cc(CN2CCN(C)CC2)c(C)n1C1CCCCC1,MIC,H37Rv,,,,,,<12.5 µg/mL
O=C1CSC(c2ccc(O)cc2)N1C(=O)NCCCN1c2ccccc2Sc2ccccc21,inhibition,H37Rv,25 µg/mL,agar,,,,33%
COc1cc(CC2C(=O)OCC2C(O)c2ccc3c(c2)OCO3)cc(OC)c1OC,inhibition,H37Rv,12.5 µg/mL,BACTEC,,,,22%
O=C(NCCCN1c2ccccc2Sc2ccccc21)N1C(=O)/C(=C\c2ccccc2[N+](=O)[O-])SC1c1ccccc1[N+](=O)[O-],inhibition,H37Rv,50 µg/mL,agar,,,,81%
Nc1ccc(-c2nnc(CCON=C(c3ccccc3)c3ccccc3)o2)cc1,inhibition,,12.5 µg/mL,,,,,7–56%
O=C(NCCCN1c2ccccc2Sc2ccccc21)N1C(=O)/C(=C\c2cccc(Br)c2)SC1c1cccc(Br)c1,inhibition,H37Rv,50 µg/mL,agar,,,,79%
CCCCCCCCCCCCCCCCCC(=O)OCC(COC1OC(CS(=O)(=O)[O-])C(O)C(O)C1O)OC(=O)CCCCCCCCCCCCCCCCC.[Na+],MIC bound,H37Rv,,BACTEC,,,,>12.5 µg/mL
NNC(=O)c1ccncc1,MIC,CSU H37Rv,,BACTEC,,,,0.023 µg/mL
CCCCNC(=O)CN1C(C(C)=O)=C(O)c2c(C)cc(C)nc2S1(=O)=O,EC50,H37Rv,,,,,,>12.5 µg/mL
O=C1CSC(c2cccc([N+](=O)[O-])c2)N1C(=O)NCCCN1c2ccccc2Sc2ccccc21,inhibition,H37Rv,50 µg/mL,agar,,,,68%
CCCCCCCCCCCCCCCCOCC(O)CO,MIC bound,H37Rv,,BACTEC,,,,>12.5 µg/mL
S=c1[nH]nc(CCON=C(c2ccccc2)c2ccccc2)o1,inhibition,,12.5 µg/mL,,,,,7–56%
Cc1ccc(NC(=O)C(Br)C(Br)c2ccccc2)cc1Cl,inhibition,H37Rv,12.5 µg/mL,BACTEC,,,,78%
O=C1CSC(c2ccccc2O)N1C(=O)NCCCN1c2ccccc2Sc2ccccc21,inhibition,H37Rv,50 µg/mL,agar,,,,65%
Cc1cc(C)c2c(n1)S(=O)(=O)N(CC(=O)c1ccccn1)C2=O,inhibition,H37Rv,12.5 µg/mL,,,,,1%
O=C(/N=C/c1ccc(Cl)cc1)NCCCN1c2ccccc2Sc2ccccc21,inhibition,H37Rv,50 µg/mL,agar,,,,32%
O=C(Oc1ccc(Br)cc1C(=O)Nc1ccc(C(F)(F)F)cc1)c1ccccc1,MIC,331/88 (H37Rv),,broth dilution,21 d,,,1 µM
COc1cc(C(C)(C)C)c2oc3c(c2c1)C(=O)C(C(C)(C)C)=CC3(OC)OC,inhibition,H37Rv,12.5 µg/mL,BACTEC,,,,8%
CCCCCCCCCCCCCCC[C@H]1CC=CC(=O)N1,MIC,H37Rv,,,,,,>128 µg/mL
Cc1ccccc1/C=C1/SC(c2ccccc2C)N(C(=O)NCCCN2c3ccccc3Sc3ccccc32)C1=O,inhibition,H37Rv,50 µg/mL,agar,,,,47%
CCCCCc1ccc(Oc2ccccc2C(F)(F)F)c(O)c1,MIC100,,,,,,,50 µg/mL
N=C(N)CCNC(=O)C1CCC(N)=N1,MIC,H37Rv,,BACTEC,,,,≥12.8 µg/mL
CCOC(=O)C(CC)Sc1nc(N)c2c3c(sc2n1)CC(C(C)(C)C)CC3,MIC,H37Rv,,MTT / visual reading,,,,>200 µg/mL
c1ccc(C(=NOCCc2nnc(-c3ccccc3)o2)c2ccccc2)cc1,inhibition,,12.5 µg/mL,,,,,7–56%

The last 11 rows once more:

compound	read-out	strain	tested at	method	conditions	cell line	mutations	value
O=C1CSC(c2ccccc2O)N1C(=O)NCCCN1c2ccccc2Sc2ccccc21	inhibition	H37Rv	50 µg/mL	agar				65%
Cc1cc(C)c2c(n1)S(=O)(=O)N(CC(=O)c1ccccn1)C2=O	inhibition	H37Rv	12.5 µg/mL					1%
O=C(/N=C/c1ccc(Cl)cc1)NCCCN1c2ccccc2Sc2ccccc21	inhibition	H37Rv	50 µg/mL	agar				32%
O=C(Oc1ccc(Br)cc1C(=O)Nc1ccc(C(F)(F)F)cc1)c1ccccc1	MIC	331/88 (H37Rv)		broth dilution	21 d			1 µM
COc1cc(C(C)(C)C)c2oc3c(c2c1)C(=O)C(C(C)(C)C)=CC3(OC)OC	inhibition	H37Rv	12.5 µg/mL	BACTEC				8%
CCCCCCCCCCCCCCC[C@H]1CC=CC(=O)N1	MIC	H37Rv						>128 µg/mL
Cc1ccccc1/C=C1/SC(c2ccccc2C)N(C(=O)NCCCN2c3ccccc3Sc3ccccc32)C1=O	inhibition	H37Rv	50 µg/mL	agar				47%
CCCCCc1ccc(Oc2ccccc2C(F)(F)F)c(O)c1	MIC100							50 µg/mL
N=C(N)CCNC(=O)C1CCC(N)=N1	MIC	H37Rv		BACTEC				≥12.8 µg/mL
CCOC(=O)C(CC)Sc1nc(N)c2c3c(sc2n1)CC(C(C)(C)C)CC3	MIC	H37Rv		MTT / visual reading				>200 µg/mL
c1ccc(C(=NOCCc2nnc(-c3ccccc3)o2)c2ccccc2)cc1	inhibition		12.5 µg/mL					7–56%